Primary screen of a compound library

The values are deposited in ChEMBL (CHEMBL3988442, “University of Dundee, Small-Polar-MMV Screening Library” (2021)).

Each number is a percent effect as filed. The controls that fix the scale are not given in the record; negative values are as filed. Many other results are left out here, so strong results are more common than in the screen.

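Growth of Mycobacterium tuberculosis over 3 days (7H9 medium with glucose and tyloxapol); the read-out is not stated. Tested at 500 µM. Higher reads as more growth inhibition (inferred: compounds with an IC50 in retests scored well above the rest). About 18,000 compounds were tested under these conditions; 7.9% (about 1,400) showed 50% or more at least once.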

| compound | percent effect |
|---|---|
| `CC(N)c1nc(-c2ccc3c(c2)OCO3)c[nH]1` (stereo not drawn) | 58.2% |
| `CN(Cc1ccccc1)C(=O)CCN` | 10.04% |
| `O=C1NCCc2c(F)cc(Br)cc21` | 32.01% |
| `N#CCCN1CCN(Cc2ccc(C#N)cc2)CC1` | 20.02% |
| `CN1C(=O)C(N)Cc2ccccc21` (stereo not drawn) | -2.712% |
| `Cn1c(=O)c2c(nc(Cl)n2CCCC#N)n(C)c1=O` | 6.581% |
| `Cc1noc(C)c1CNC1=NS(=O)(=O)c2ccccc21` | -168% |
| `CCc1nc(CSc2ncnn2C)no1` | -3.744% |
| `CCC[C@H]1CN(C(=O)c2ccc(CO)o2)C[C@@H]1N(C)C` | 9.3% |
| `N#Cc1ccc(NCC(=O)NC2CCOCC2)cc1` | 9.593% |
| `N#Cc1ccc(C2NC(=O)c3cccnc3N2)cc1` (stereo not drawn) | -8.708% |
| `CCc1cccc2c1N(CC(N)=O)CCC2` | 2.017% |
| `CN(C)C(=O)CCn1nc2ccccn2c1=O` | 18.4% |
| `CN(CC(N)=O)Cc1cc(Br)c2c(c1)OCO2` | 40.79% |
| `CCC=C(C)C(=O)NCC(C)N1CCN(CC)CC1` (stereo not drawn) | 37.19% |
| `Cc1cc(NC(=O)C2=NN(C)C(=O)CC2)n(C)n1` | -0.3519% |
| `C[C@]1(O)CCN(c2nnc(-c3ccccc3)s2)C[C@@H]1O` | 8.358% |
| `CC1(N)Cc2ccccc21` (stereo not drawn) | 0.06852% |
| `CCOC(C(=O)NCC(C)(C)C(N)=O)c1ccccc1` (stereo not drawn) | 3.901% |
| `Cc1ccc(C(=O)Nc2ccncc2F)cn1` | 21.79% |
| `CCOCCOC(=O)C1COCCN1CC` (stereo not drawn) | -6.258% |
| `Nc1nc(N)nc(COC(=O)Cc2ccsc2)n1` | 14.3% |
| `NC(=O)Cn1c(C2CC2)nc2ccccc21` | -5.11% |
| `Nc1ccc(-c2ccc(CN3CCCCC3)cn2)cn1` | 10.2% |
| `O=C(CC(O)c1cccc(F)c1)N1CCC[C@H]1CO` (stereo partly drawn) | 5.062% |
| `CN1CCN(CCOc2ccc(C#N)cc2)CC1` | 22.01% |
| `Cc1cc(C2CCCN2C(=O)CCS(C)(=O)=O)on1` (stereo not drawn) | 9.888% |
| `CCNC(=O)Nc1cc(OC)cc(OC)c1` | 45.63% |
| `O=C(C1Cc2cc(Cl)ccc2O1)N1CCOCC1` (stereo not drawn) | 51.07% |
| `Cc1cc(N2CCN(C)CC2)n2ncnc2n1` | 6.204% |
| `O=C(NC1CCN(C(=O)C2CC2)CC1)c1cccs1` | 22.36% |
| `Cc1cccc(OCCNC(=O)CCn2cncn2)c1` | 18.97% |
| `CCCC(O)CNS(=O)(=O)c1ccc(C(=O)NC)cc1` (stereo not drawn) | 12.95% |
| `N#Cc1cc(Br)ccc1N1CCN(C(=O)CO)CC1` | 38.99% |
| `COc1ccc(CCCC(=O)N2CCC(CN)C2)cc1` (stereo not drawn) | 73.47% |
| `CC(C)(C)OC(=O)N1C[C@@H]2[C@@H](N)[C@@H]2C1` | 16.19% |
| `CS(=O)(=O)N(c1ccccc1)C1CSC1` | 3.804% |
| `Cc1nc(CN(C)CC(=O)Nc2ccn(C)n2)no1` | -1.793% |
| `CCOCCC(=O)N1C[C@@H](N)C[C@H]1C(=O)N(CC)CC` | 3.707% |
| `COCCN(C)C(=O)Nc1cccc(Cl)c1` | 53.69% |
| `O=C(CSCCO)Nc1ccccc1F` | 25.79% |
| `CN(C)CC1(O)CCCN(CC(C)(C)C)C1=O` (stereo not drawn) | 4.866% |
| `N#Cc1ccc(CN2CCn3ccnc3C2)cc1` | 14.07% |
| `CSCCC(O)C(=O)N(C)CCc1ccncc1` (stereo not drawn) | 7.186% |
| `OC(CN1CCn2ccnc2C1)c1cccc(F)c1` (stereo not drawn) | 50.03% |
| `NCCCc1nc(-c2ccncc2)cs1` | -0.2237% |
| `CC(C)CNC(=O)CNC(=O)c1ccc(Br)c(O)c1` | -2.768% |
| `NCc1nnc2n1CCC2` | 5.658% |
| `CCCc1cc(=O)[nH]c(C(C)(N)CC)n1` (stereo not drawn) | 20.48% |
| `CCc1nsc(N2CCN(CC(O)COC)CC2)n1` (stereo not drawn) | 12.69% |
| `CN(C)c1ccnc(NC(=O)c2cnsn2)c1` | 5.229% |
| `COc1cccc(S(=O)(=O)CCN2CCCC2CO)c1` (stereo not drawn) | -1.885% |
| `COC(=O)c1ccc(CCN)c(OC)c1` | 35.49% |
| `CC(C)n1cc(Br)cc1C(=O)NCCCO` | -10.56% |
| `Cc1ccc(F)cc1CN1C(=O)CC(C)C1=O` (stereo not drawn) | -5.427% |
| `CC(CCn1cccn1)NC1CCOCC1` (stereo not drawn) | -4.933% |
| `O=c1cc(C2CCC2)nc[nH]1` | 1.897% |
| `NCC1CCc2ccccc21` (stereo not drawn) | 40.67% |
| `O=C(NCc1cccs1)c1cnsn1` | 70.42% |
| `Cc1cc(C(=O)N(C)C[C@H](O)CO)cc(Cl)c1Br` | 61.5% |
| `CCOCCN1CCN(Cc2nnc(OCC)s2)CC1` | 14.81% |
| `CS(=O)(=O)NCCC(=O)NC1CCc2ccccc2C1` (stereo not drawn) | 24.94% |
| `CCOc1ccc(S(=O)(=O)NCCCO)cc1` | 11.68% |
| `CCN(CC(N)=O)Cc1ccc(N2CCCC2)nc1` | 38.47% |
| `NCC1CCN(C(=O)CCc2ccc(F)cc2)CC1` | 41.53% |
| `CCn1ncnc1C(C)NC(=O)Cc1ccncc1` (stereo not drawn) | -5.505% |
| `Cn1cc(C(N)=O)c(NCc2ccc(F)c(C#N)c2)n1` | 13.78% |
| `Cc1nnc(SCCCNC(=O)c2cc(Cl)c[nH]2)s1` | 59.73% |
| `COCCc1noc([C@@H]2CN(CC(C)C)C[C@H]2CO)n1` | 2.889% |
| `CC(=O)NCCCS(=O)(=O)c1ncccc1Cl` | -4.149% |
| `NC(=O)NCC(=O)Nc1cccc(Cl)c1` | -11.91% |
| `Cc1noc(C)c1CNC1CCN(S(C)(=O)=O)CC1` | -6.628% |
| `CC(C)c1nccn1CCCN` | 8.878% |
| `OC1(c2scnc2Br)CCNCC1` | -3.576% |
| `Cc1cccc(S(=O)(=O)NC2CCNC2)c1Cl` (stereo not drawn) | -1.343% |
| `CC(N)c1c(F)cccc1Cl` (stereo not drawn) | 14.26% |
| `CCC1CCCCN1C(=O)c1csc(NC(C)=O)n1` (stereo not drawn) | 24.2% |
| `CNC(=O)NC(=O)CSc1nc(C)c(C)c(C)c1C#N` | -1.377% |
| `CN(Cc1ccnn1C)C(=O)c1ccc(Cl)cc1` | 41.77% |
| `CN(Cc1cc[nH]n1)C(=O)C1COc2ccccc2C1` (stereo not drawn) | 28.57% |
| `Cc1ccccc1-n1nnnc1SCC(=O)NC1CC1` | 59.26% |
| `COc1cccc(CS(=O)(=O)Nc2ccc(C)nc2)c1` | 57.43% |

Some entries from above, unchanged:

- CN(CC(N)=O)Cc1cc(Br)c2c(c1)OCO2 : 40.79%
- COC(=O)c1ccc(CCN)c(OC)c1 : 35.49%
- Cc1nc(CN(C)CC(=O)Nc2ccn(C)n2)no1 : -1.793%
- Cc1cccc(OCCNC(=O)CCn2cncn2)c1 : 18.97%
- Cc1cc(C(=O)N(C)C[C@H](O)CO)cc(Cl)c1Br : 61.5%
- N#Cc1ccc(CN2CCn3ccnc3C2)cc1 : 14.07%
- CC(C)(C)OC(=O)N1C[C@@H]2[C@@H](N)[C@@H]2C1 : 16.19%
- O=C(CSCCO)Nc1ccccc1F : 25.79%
- N#CCCN1CCN(Cc2ccc(C#N)cc2)CC1 : 20.02%